Assays:
SARS-CoV-2 WA1/2020 = experiment: Therapeutic efficacy in ferrets, WA1/2020; type: in vivo, ferret (Mustela putorius furo); conditions: ferret, given as 10 mg/kg b.i.d.
[1] = tested on: SARS-CoV-2 (WA1/2020 and VOC α, β, γ); experiment: Antiviral potency in SARS-CoV-2-infected Vero E6 cells (range over isolates); type: cell-based; conditions: VeroE6

CC(C)C(=O)OCC1OC(C#N)(c2ccc3c(N)ncnn23)C(OC(=O)C(C)C)C1OC(=O)C(C)C (centres unmarked)
minimal daily oral dose providing full therapeutic benefit (SARS-CoV-2 WA1/2020): 20 mg/kg
selectivity index (SI = CC50/EC50) [1]: > 137

Reference: article PMC8571282 (Nature Communications, 2021)
